PubChem BioAssay AID624099 | ICCB-Longwood – 2012

Test: 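Knock-downs relieving repression by E2 of an HPV18 LCR luciferase reporter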 (primary screen)
Cells: human C33A cervical carcinoma cells (HPV-negative) stably expressing BPV1 E2 and an HPV18 LCR luciferase reporter
Reagents: siRNA pool against human genes, 40 nM
Timing: 72 h
Detection: 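HPV18 LCR reporter light per well, converted to plate-wise z-scores that exclude control wells, and averaged over triplicate plates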
Scale: mean z-score and z-score: higher = stronger reporter signal, weaker E2 silencing
Hit rule: 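Hit if mean z-score reaches 2 and two or more of three replicate z-scores also reach 2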
The deposit covers about 21,000 reagents; shown is a part drawn at random. 497 of all reagents (2.4%) count as active. 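Higher z means weaker E2 silencing; only reporter increases were scored, and knock-downs that hurt cell survival may mask genuine repressor factors.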 The numbers tell different reagents against one gene apart.

OLMALINC (GeneID 90271) — mean z-score = -0.19; z-score, replicate A = -0.27; z-score, replicate B = -0.26; z-score, replicate C = -0.04; call = inactive
SERPINA6 (GeneID 866) — mean z-score = 0.17; z-score, replicate A = -0.31; z-score, replicate B = 0.62; z-score, replicate C = 0.19; call = inactive
FCHO2 (GeneID 115548) — mean z-score = -0.92; z-score, replicate A = -0.46; z-score, replicate B = -1.2; z-score, replicate C = -1.11; call = inactive
SLC6A6 (GeneID 6533) — mean z-score = -0.91; z-score, replicate A = -0.64; z-score, replicate B = -0.99; z-score, replicate C = -1.11; call = inactive
POP4 (GeneID 10775) — mean z-score = 0.52; z-score, replicate A = 0.37; z-score, replicate B = 0.39; z-score, replicate C = 0.8; call = inactive
SLC1A6 (GeneID 6511) — mean z-score = 0.07; z-score, replicate A = 0.08; z-score, replicate B = 0.22; z-score, replicate C = -0.1; call = inactive
PCYT1B (GeneID 9468) — mean z-score = 0.12; z-score, replicate A = 0.26; z-score, replicate B = -0.09; z-score, replicate C = 0.21; call = inactive
UBE4A (GeneID 9354) — mean z-score = -0.57; z-score, replicate A = -0.4; z-score, replicate B = -0.53; z-score, replicate C = -0.76; call = inactive

Looked up above.
For “z-score, replicate B”, OLMALINC (GeneID 90271) has -0.26
Result for SLC1A6 (GeneID 6511) under “z-score, replicate B”: 0.22

Additional results follow.
SALL1 (GeneID 6299) — mean z-score = -2.11; z-score, replicate A = -1.93; z-score, replicate B = -2.17; z-score, replicate C = -2.23; call = inactive
AVPR2 (GeneID 554) — mean z-score = -0.89; z-score, replicate A = -0.62; z-score, replicate B = -1.22; z-score, replicate C = -0.83; call = inactive
MCM8 (GeneID 84515) — mean z-score = 0.18; z-score, replicate A = 0.17; z-score, replicate B = 0.21; z-score, replicate C = 0.17; call = inactive
TEX55 (GeneID 152405) — mean z-score = -2.28; z-score, replicate A = -2.2; z-score, replicate B = -2.47; z-score, replicate C = -2.17; call = inactive
CCL15 (GeneID 6359) — mean z-score = 1.28; z-score, replicate A = 1.37; z-score, replicate B = 1.38; z-score, replicate C = 1.09; call = inactive
SEPTIN6 (GeneID 23157) — mean z-score = -1.08; z-score, replicate A = -0.94; z-score, replicate B = -1.17; z-score, replicate C = -1.12; call = inactive
CAST (GeneID 831) #1 — mean z-score = -0.34; z-score, replicate A = -0.29; z-score, replicate B = -0.4; z-score, replicate C = -0.32; call = inactive
CAST (GeneID 831) #2 — mean z-score = 0.27; z-score, replicate A = 0.31; z-score, replicate B = 0.52; z-score, replicate C = -0.02; call = inactive
SVBP (GeneID 374969) — mean z-score = 1.45; z-score, replicate A = 1.36; z-score, replicate B = 1.46; z-score, replicate C = 1.54; call = inactive
IL12RB2 (GeneID 3595) — mean z-score = 0.16; z-score, replicate A = 0.31; z-score, replicate B = 0.15; z-score, replicate C = 0.04; call = inactive
SLC24A5 (GeneID 283652) — mean z-score = -1.33; z-score, replicate A = -1.19; z-score, replicate B = -1.58; z-score, replicate C = -1.22; call = inactive
MPP7 (GeneID 143098) — mean z-score = 0.2; z-score, replicate A = 0.13; z-score, replicate B = 0.28; z-score, replicate C = 0.2; call = inactive
UBQLN4 (GeneID 56893) — mean z-score = 1.99; z-score, replicate A = 1.72; z-score, replicate B = 1.95; z-score, replicate C = 2.31; call = inactive
